Anti-infective test results gathered from many reports (values: NIAID ChemDB through PubChem).

All rows: whole-cell or culture tests; species: HIV-1; read by: cytopathic effect; measure: EC50

Blank or dashed fields: not listed here. Conditions beyond the fields shown may differ between rows. ECn: concentration that inhibits the pathogen or its effect by n%.

structure	strain or isolate	mutations	cells	value
CCN1c2ncccc2N(C)C(=O)c2oc3ccccc3c21	IIIB		C8166	1.6 µM
CC(C)=CCN1Cc2cccc3[nH]c(=S)n(c23)C[C@@H]1C	IIIB		MT-2	0.23 ± 0.04 µM
Cc1nc(N)nc2c1ncn2[C@H]1C[C@H](N=[N+]=[N-])[C@@H](CO)O1	IIIB		MT-4	>200 µM
Cc1cn([C@H]2C[C@H](N=[N+]=[N-])[C@@H](CO)O2)c(=O)[nH]c1=O	IIIB		MT-4	0.06 µM
Cc1cn([C@@H]2O[C@H](CO[Si](C)(C)C(C)(C)C)[C@@]3(OS(=O)(=O)C=C3N)[C@H]2O[Si](C)(C)C(C)(C)C)c(=O)[nH]c1=O	IIIB WT		CEM	0.034 µM
[N-]=[N+]=N[C@H]1C[C@H](n2cnc3c(Nc4ccccc4)nc(N)nc32)O[C@@H]1CO	IIIB		MT-4	112 µM
CC(C)=CCN1Cc2cccc3[nH]c(=S)n(c23)C[C@@H]1C	IIIB	RT-R83K L100I	MT-2	>30 µM
CC(C)Nc1cccnc1N1CCN(C(=O)c2cc3cc(NS(C)(=O)=O)ccc3[nH]2)CC1	P-1 (RT-K103N Y144F)	RT-K103N Y144F	CEM	1.27 µg/mL
Nc1nc(=O)n([C@@H]2CS[C@H](CO)O2)cc1F	LAV-1		CEM	0.009 µM
CCc1c(Sc2ccccn2)n(COCc2ccccc2)c(=O)[nH]c1=O	TIBO-RS		MT-2	0.65 ± 0.25 µM
O=c1[nH]cnc2c1ncn2[C@H]1CC[C@@H](CO)O1	R82150 (RT-L100I)	RT-L100I	MT-2	2.5 µM
Fc1ccc(F)c(C2OCc3nc4ccccc4n32)c1	IIIB		MT-4	6.1 µM
Cc1cc(Cl)nc(N2C(=O)CSC2c2c(Cl)cccc2Cl)n1	IIIB		MT-4	51.8 µM
CC(C)Nc1cccnc1N1CCN(C(=O)c2cc3cc(NS(C)(=O)=O)ccc3[nH]2)CC1	NNRTI-resistant	RT-Y181C	CEM	0.93 µM
CC(C)(C)NC(=O)[C@@H]1C[C@@H]2CCCC[C@@H]2CN1C[C@@H](O)[C@H](Cc1ccccc1)NC(=O)[C@H](CC(N)=O)NC(=O)c1ccc2ccccc2n1	HXB2	RT-A62V S68G T69N V75I F77L F116Y Q151M	MT-4	>10 µM
CCN1c2ncccc2N(C)C(=S)c2oc3cccnc3c21	IIIB		MT-4	0.1 µM
Fc1cccc(F)c1C1SCc2nc3ccccc3n21		RT-K103N	CEM	15.6 µM
Nc1ccn([C@H]2CC[C@@H](CO)O2)c(=O)n1	IIIB		MT-4	0.854 µM
CCN1c2ncccc2N(C)C(=O)c2oc3cccnc3c21	IIIB		C8166	0.02 µM
CCc1c(Sc2ccccc2)n(COCc2ccccc2)c(=O)[nH]c1=O	Nevirapine-resistant		MT-2	0.14 ± 0.04 µM
CN(c1nc(N)nc2c1ncn2[C@H]1C[C@H](N=[N+]=[N-])[C@@H](CO)O1)C1CC1	IIIB		MT-4	4 µM
Cc1cn([C@H]2C=C[C@@H](CO)O2)c(=O)[nH]c1=O	BI-03.97 (HXB2(RT-A62V S68G T69D V75I F77L F116Y Q151M))	RT-A62V S68G T69D V75I F77L F116Y Q151M	MT-4	>10 µM
Cc1cn([C@H]2C[C@H](N=[N+]=[N-])[C@@H](CO)O2)c(=O)[nH]c1=O	R82150 (RT-L100I)	RT-L100I	MT-2	0.06 µM
Cc1cc(C)nc(N2C(=O)CSC2c2c(Cl)cccc2Cl)n1		RT-Y181C	CEM	2.54 µM
CCCN(C)c1nc(N)nc2c1ncn2[C@H]1C[C@H](N=[N+]=[N-])[C@@H](CO)O1	IIIB		MT-4	12 µM
Fc1cccc(F)c1C1SCc2nc3ccccc3n21	MN		MT-4	0.14 µM
CC[C@H]1C(=O)Nc2ccc(F)cc2N1C(=O)OC(C)C	P-1 (RT-K103N Y144F)	RT-K103N Y144F	CEM	0.05 µg/mL
CC(C)=CCN1Cc2cc(Cl)cc3[nH]c(=S)n(c23)C[C@@H]1C	IIIB		C8166	0.03 µM
COc1cc(C)nc(N2C(=O)CSC2c2c(Cl)cccc2Cl)n1		RT-L100I	CEM	0.38 µM
Cc1ccnc2c1NC(=O)c1cccnc1N2C1CC1	E-2 (RT-V106A)	RT-V106A	CEM	0.35 µg/mL
Cc1ccnc(N2C(=O)CSC2c2c(F)cccc2Cl)n1	IIIB		MT-4	0.074 µM
Fc1cccc(F)c1[C@H]1SCc2nc3ccccc3n21	ADP/141		MT-4	0.14 µM
Fc1ccc(Cl)c(C2OCc3nc4ccccc4n32)c1	IIIB		MT-4	7.9 µM
Cc1cn([C@@H]2O[C@H](CO[Si](C)(C)C(C)(C)C)C3(OS(=O)(=O)C=C3N)[C@H]2O[Si](C)(C)C(C)(C)C)c(=O)n(C)c1=O	IIIB WT		CEM	0.083 µM
Fc1cccc(F)c1[C@@H]1SCc2nc3ccccc3n21	RF		MT-4	1 µM

For reference, 4 entries again:

Fc1ccc(F)c(C2OCc3nc4ccccc4n32)c1 ; strain or isolate: IIIB ; cells: MT-4 ; value: 6.1 µM
Fc1cccc(F)c1[C@H]1SCc2nc3ccccc3n21 ; strain or isolate: ADP/141 ; cells: MT-4 ; value: 0.14 µM
Cc1cn([C@@H]2O[C@H](CO[Si](C)(C)C(C)(C)C)[C@@]3(OS(=O)(=O)C=C3N)[C@H]2O[Si](C)(C)C(C)(C)C)c(=O)[nH]c1=O ; strain or isolate: IIIB WT ; cells: CEM ; value: 0.034 µM
Cc1cn([C@H]2C[C@H](N=[N+]=[N-])[C@@H](CO)O2)c(=O)[nH]c1=O ; strain or isolate: R82150 (RT-L100I) ; mutations: RT-L100I ; cells: MT-2 ; value: 0.06 µM